This is an account of results in EP4162935B1 (UNIVERSIDADE NOVA DE LISBOA, priority 2021, dated 2023).

This assay has as its system SARS-CoV-2. Nature of the assay: SARS-CoV-2 cell infection assay in Vero E6 cells, intracellular ATP levels (CellTiter-Glo) and cytopathic effect. The settings on record: concentration with […] absence of virus and most protection from infection, 30 pfu SARS-CoV-2, 72h. On the technique in general: In ATP-based viability assays light output follows the ATP content of the culture.

Structures are written as SMILES.

On to `COc1ccc(-c2cc(=O)c3c(O)cc(O)cc3o2)cc1O` [diosmetin, 5,7-Dihydroxy-2-(3-hydroxy-4-methoxyphenyl)-4H-benzopyran-4-one], for which the optimal concentration is recorded as 45 µM.
